Anti-infective test results gathered from many reports (values: NIAID ChemDB through PubChem).

Shared fields: toxicity to cultured cells; cells: HEL; measure: CC50

Rows are shuffled and stem from different studies. CCn: concentration that lowers growth or viability of the cells by n%.

smiles | value
Nc1ncnc2c1ncn2CCOCP(=O)(O)O | 100 µg/mL
Nc1nc2c(ncn2CCOCP(=O)(O)O)c(=O)[nH]1 | 2.5 µg/mL
O=C(O)/C=C/c1ccc(O)c(O)c1 | 175 µg/mL
Nc1nc2c(ncn2C[C@H]2CC[C@@H](CO)C2)c(=O)[nH]1 | 80 µg/mL
NC(=O)c1nc(F)c[nH]c1=O | >1000 µg/mL
O=C(O)c1cc(O)ccc1O | 95 µg/mL
Nc1nc2c(ncn2COC(CO)CO)c(=O)[nH]1 | 242 µg/mL
Nc1nc(Cl)c2ncn(C[C@H]3CC[C@@H](CO)C3)c2n1 | 2 µg/mL
O=c1ccn(CC(CO)OCP(=O)(O)O)c(=O)[nH]1 | >400 µg/mL
Nc1ncnc2c1ncn2C[C@@H](CO)OCP(=O)(O)O | >70 µg/mL
Nc1nccc2c1ncn2[C@@H]1O[C@H](CO)[C@@H](O)[C@H]1O | >200 µg/mL
Cc1cn(CC(CO)OCP(=O)(O)O)c(=O)[nH]c1=O | >400 µg/mL
CC(C)(C)C(=O)OCOP1(=O)CO[C@@H](Cn2cnc(N)nc2=O)CO1 | 14 µg/mL
Nc1ncnc2c1ncn2[C@@H]1O[C@H](CO)[C@@H](O)[C@@H]1O | 120 µM
Cc1cn([C@H]2C[C@H](O)[C@@H](CO)S2)c(=O)[nH]c1=O | 0.8 µM
Cc1cc(O)cc(O)c1CC(=O)O | 100 µg/mL
O=c1ccn([C@H]2C[C@H](O)[C@@H](CO)O2)c(=O)[nH]1 | >200 µM
Nc1nc2c(ncn2CC(CO)OCP(=O)(O)O)c(=O)[nH]1 | 10 µg/mL
Nc1nccc2c1ncn2C(C=O)OC(C=O)CO | 16 µg/mL
O=C(O)CCc1ccc(O)c(O)c1 | 100 µg/mL
C[C@H](O)C1=C[C@@H](n2cnc3c(N)ncnc32)[C@H](O)[C@@H]1O | 132 µg/mL
Nc1ncnc2c1ccn2[C@H]1C[C@H](O)[C@@H](CO)O1 | 74 µM
CCCCCCCCCCCCCCCCOCCOP1(=O)CO[C@@H](Cn2cnc3c(N)nc(N)nc32)CO1 | 30 µM
O=c1[nH]cnc2c1ncn2CC(CO)OCP(=O)(O)O | >400 µg/mL
O=c1[nH]c(=O)n([C@@H]2O[C@H](CO)[C@@H](O)[C@@H]2O)cc1/C=C/I | >404 µM
O=c1[nH]c(=O)n([C@H]2C[C@H](O)[C@@H](CO)O2)cc1/C=C/Br | >200 µg/mL
C#Cc1cn([C@H]2C[C@H](O)[C@@H](CO)O2)c(=O)[nH]c1=O | 8.7 µM
NCC(O)c1ccc(O)c(O)c1 | ≥200 µg/mL
C[C@@]1(CO)[C@H](O)CC[C@@]2(C)[C@H]1CCC1C[C@@H]3CC12CC[C@]3(O)COC(=O)CCC(=O)O | >45 µg/mL
O=c1[nH]c(=O)n(C2CC(O)C(CO)O2)cc1/C=C/Br | >250 µM
Nc1nccc2c1ncn2[C@@H]1C=C[C@@H](O)[C@H]1O | 13.5 µg/mL
C[C@]12CC[C@@H]3c4ccc(O)cc4CC[C@H]3[C@@H]1CC[C@@H]2O | >20 µM
Nc1ncnc2c1ncn2C[C@H]1COP(=O)(O)CO1 | 130 µM
C[C@H]1C[C@@H](n2cnc3c(N)ncnc32)[C@H](O)[C@@H]1O | >50 µg/mL
CCOC(=O)c1ccc(O)c(O)c1 | ≥200 µg/mL
O=c1cc(-c2ccc(O)c(O)c2)oc2cc(O)cc(O)c12 | 62 µM
Oc1cccc(O)c1O | 165 µg/mL
Nc1ncnc2c1ncn2C[C@@H](CO)OCP(=O)(O)O | 20 µg/mL
O=c1[nH]c(=O)n([C@H]2C[C@H](O)[C@@H](CO)O2)cc1/C=C/Br | 339 µM
Cc1cn(C[C@@H](CO)OCP(=O)(O)O)c(=O)[nH]c1=O | >400 µg/mL
O=C(O)/C=C/c1ccc(O)c(O)c1 | 74 µg/mL
O=c1[nH]c(=O)n([C@H]2C[C@H](O)[C@@H](CO)O2)cc1/C=C/Br | >600 µM
Nc1nc2c(ncn2COC(CO)CO)c(=O)[nH]1 | 1077 µM
O=C(O)/C=C/c1ccc(O)c(O)c1.O=C(O)c1cc(O)c(O)c(O)c1 | 156 µg/mL
O=c1[nH]c(=O)n([C@H]2C[C@H](O)[C@@H](CO)O2)cc1/C=C/Br | 135 µM
O=c1[nH]c(=O)n([C@H]2C[C@H](O)[C@@H](CO)S2)cc1C1CCC1 | >150 µM
Nc1nccc2c1ncn2[C@@H]1C=C(CO)[C@@H](O)[C@H]1O | 125 µg/mL
Nc1ccn(C[C@@H](CO)OCP(=O)(O)O)c(=O)n1 | 100 µg/mL
C(=C\c1ccncc1)/c1ccncc1 | >50 µM
O=C([O-])CN(CCN(CC(=O)[O-])CC(=O)[O-])CCN(CC(=O)[O-])CC(=O)[O-].[Ca+2].[Na+].[Na+].[Na+] | 83.56 µg/mL
Nc1nc(N)c2ncn(CC(CO)OCP(=O)(O)O)c2n1 | >200 µg/mL
Nc1nc(N)c2ncn(C3C[C@H](O)[C@@H](O)C3)c2n1 | 139 µg/mL
N[C@H](c1ccccc1)[C@H](N)c1ccccc1 | >50 µM
C=Cc1cn([C@H]2C[C@H](O)[C@@H](CO)O2)c(=O)[nH]c1=O | 17 µM
Nc1ncnc2c1ncn2[C@@H]1O[C@H](CO)[C@H]1CO | 498 µM
Nc1ncc2ncn(CCOCP(=O)(O)O)c2n1 | >400 µg/mL

6 of the rows above, restated:

smiles,value
Nc1ncnc2c1ncn2C[C@@H](CO)OCP(=O)(O)O,20 µg/mL
Nc1ncnc2c1ncn2[C@@H]1O[C@H](CO)[C@H]1CO,498 µM
O=c1[nH]c(=O)n([C@@H]2O[C@H](CO)[C@@H](O)[C@@H]2O)cc1/C=C/I,>404 µM
O=c1[nH]c(=O)n(C2CC(O)C(CO)O2)cc1/C=C/Br,>250 µM
Cc1cn(CC(CO)OCP(=O)(O)O)c(=O)[nH]c1=O,>400 µg/mL
Nc1nc(N)c2ncn(C3C[C@H](O)[C@@H](O)C3)c2n1,139 µg/mL